From article PMC4491657, “Design and Synthesis of Novel N-Arylsulfonyl-3-(2-yl-ethanone)-6-methylindole Derivatives as Inhibitors of HIV-1 Replication” (Pharmaceuticals, 2015)
Where “and” joins values, the source holds several entries; their conditions need not be identical. Identical values can stand only once.

Test system: HIV-1 IIIB
Test: Syncytia assay (anti-HIV-1 activity in acutely infected C8166 cells)
Format: cell-based
Conditions: CC50 value/EC50 value
Method: Cell line (C8166) and the laboratory-derived virus (HIV-1 IIIB) were obtained from the MRC, AIDS Reagent Project, London, UK. C8166 was maintained in RPMI-1640 supplemented with 10% heat-inactivated new born calf serum (Gibco, USA). The cells used in all experiments were in log-phase growth. The 50% HIV-1 IIIB tissue culture infectious dose (TCID50) in C8166 cells was determined and calculated by the Reed and Muench method. Virus stocks were stored in small aliquots at −70 °C [11].
In the presence of 100 μL of various concentrations of compounds, C8166 cells (4 × 10^5/mL) were infected with virus HIV-1IIIB at a multiplicity of infection (M.O.I) of 0.06. The final volume per well was 200 μL. Control assays were performed without the testing compounds in HIV-1IIIB infected and uninfected cultures. After 3 days of culture, the cytopathic effect (CPE) was measured by counting the number of syncytia. Percentage inhibition of syncytia formation was calculated and 50% effective concentration (EC50) was calculated. AZT (Sigma, USA) was used as a positive control. Therapeutic index (TI) = CC50/EC50 [13].

Row | Compound | TI (in vitro therapeutic index)
1 | Cc1cn([C@H]2C[C@H](N=[N+]=[N-])[C@@H](CO)O2)c(=O)[nH]c1=O [AZT, 3'-azido-3'-deoxythymidine, reference compound] | 351801.98
2 | Cc1ccc2c(C(=O)CN3CCCCC3)cn(S(=O)(=O)c3ccccc3)c2c1 [Compound 4a, N-Phenylsulfonyl-3-[2-piperidinylethanone]-6-methylindole] | > 15.38 and 15.38
3 | Cc1ccc2c(C(=O)CN3CCOCC3)cn(S(=O)(=O)c3ccccc3)c2c1 [Compound 4b, N-Phenylsulfonyl-3-[2-morpholinoethanone]-6-methylindole] | > 8.87
4 | Cc1ccc2c(C(=O)CN3CCCC3)cn(S(=O)(=O)c3ccccc3)c2c1 [Compound 4c, N-Phenylsulfonyl-3-[2-pyrrolidinoethanone]-6-methylindole] | 2.12
5 | Cc1ccc2c(C(=O)CN(C(C)C)C(C)C)cn(S(=O)(=O)c3ccccc3)c2c1 [Compound 4d, N-Phenylsulfonyl-3-[2-diisopropylaminoethanone]-6-methylindole] | 12.26
6 | CCCCNCC(=O)c1cn(S(=O)(=O)c2ccccc2)c2cc(C)ccc12 [Compound 4e, N-Phenylsulfonyl-3-[2-butylaminoethanone]-6-methylindole] | 1.46
7 | CCc1ccc(S(=O)(=O)n2cc(C(=O)CN3CCOCC3)c3ccc(C)cc32)cc1 [Compound 4f, N-(p-Ethyl)phenylsulfonyl-3-[2-morpholinoethanone]-6-methylindole] | > 49.77
8 | CCc1ccc(S(=O)(=O)n2cc(C(=O)CSc3nnc(-c4ccccc4)o3)c3ccc(C)cc32)cc1 [Compound 6, N-(p-Ethyl)phenylsulfonyl-3-[2-(5-phenyl-1,3,4-oxadiazole-2-yl-thio)ethanone]-6-methylindole] | 66.95
